US6680054B1 (priority 1996, dated 2004)

Test system: influenza A virus
Assay type: cell-based

NC(=O)c1ncn([C@@H]2O[C@H](CO)[C@@H](O)[C@H]2O)n1 [Ribavirin]
Therapeutic Index (MTC divided by ID50): >12.22-31.98
